Assay results reported in PubChem BioAssay AID624268 (The Scripps Research Institute Molecular Screening Center, 2012).
Only a part is listed here, and it is no random draw. Activity calls are given as the source filed them.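 How the source made its calls: active means inhibition above a per-plate cutoff of the control wells' mean inhibition plus 3 SD (cut at about 5.5% in these data); inactive means the rest.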

System: methionyl-tRNA synthetase (Trypanosoma brucei brucei)
Test: inhibition of trypanosome methionyl-tRNA synthetase – biochemical, luminescence, primary screen (AID 624268);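 further: 0% = DMSO wells median and 100% = median of wells with control inhibitor compound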
Conditions: purified T. brucei MetRS, ATP depletion, Kinase-Glo luminescence; at 11.9 µM; hits give high values
In short: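 Material: parasite MetRS enzyme / Replication: singlicate, one well per compound / Signal: luminescence of leftover ATP / Schedule: 2 h aminoacylation at 25 °C after 15 min preincubation / Medium: HEPES-MgCl2-KCl buffer plus DTT, spermine, BSA, pyrophosphatase / Doses: 11.9 µM single point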

Question: For COc1ccc(N/C(=N/P(=O)(N2CCOCC2)N2CCOCC2)N2CCOCC2)cc1, which inhibition is on record?
Answer: The inhibition was inactive: -0.5%.

Question: Which inhibition does the source give for O=P1(N(CCCl)CCCl)Nc2ccccc2N1 here?
Answer: The inhibition was inactive: -0.28%.

Question: For O=P1(N(CCCl)CCCl)OCCCN1CCCl (stereo unspecified), which inhibition is on record?
Answer: The inhibition was inactive: -0.07%.

Question: Which inhibition does the source give for COc1cc(I)ccc1[As](=O)(O)O here?
Answer: Its inhibition is inactive: 0.26%.

Question: For COc1ccc2nc(NP(=O)(c3ccccc3)c3ccccc3)sc2c1, which inhibition is on record?
Answer: The inhibition was inactive: 0.58%.

Question: Cc1c2c(nc3ccccc13)SC(C(Cl)Cl)C2 (stereo unspecified) was tested. Which inhibition did it give?
Answer: The inhibition was inactive: 0.17%.

Question: For Cc1cc(=O)[nH]c(N[N+](=O)[O-])n1, which inhibition is on record?
Answer: The inhibition was inactive: -0.68%.

Question: Which inhibition does the source give for O=C(OC1CN2CCC1CC2)C12CC3CC(CC(C3)C1)C2 (stereo unspecified) here?
Answer: Its inhibition is inactive: 0.04%.

Question: CCC(C)N(CC(C)C)C(=S)SC(NC(C)=O)C(Cl)(Cl)Cl (stereo unspecified) was tested. Which inhibition did it give?
Answer: Its inhibition is inactive: 0.53%.

Question: For CSc1ccc(Nc2c([N+](=O)[O-])cc([N+](=O)[O-])cc2[N+](=O)[O-])cc1, which inhibition is on record?
Answer: The inhibition was inactive: -0.13%.

Question: With O=C(OC1CN2CCC1CC2)c1cccc([N+](=O)[O-])c1 (stereo unspecified) as the compound, how does the inhibition read?
Answer: The inhibition was inactive: -0.93%.

Question: How did the inhibition turn out when CCOC(=O)c1ccc(NC(=O)C(C)(CCl)SC)cc1 (stereo unspecified) was run?
Answer: Its inhibition is inactive: -0.45%.

Question: Which inhibition does the source give for O=C(O)C(=O)c1ccc(N(CCCl)CCCl)cc1 here?
Answer: The inhibition was inactive: 0.23%.

Question: How did the inhibition turn out when O=C(Nc1ccncc1[N+](=O)[O-])c1ccc([N+](=O)[O-])cc1[N+](=O)[O-] was run?
Answer: Its inhibition is inactive: -0.87%.

Question: Which inhibition does the source give for O=C(COc1ccccc1)OC1CN2CCC1CC2 (stereo unspecified) here?
Answer: The inhibition was inactive: 0.12%.

Question: How did the inhibition turn out when COC(=O)C1(C)COP(=O)(N2CCCC2)OC1 (stereo unspecified) was run?
Answer: Its inhibition is inactive: -1.01%.

Question: With COP1(=S)c2c(C)nn(CCC#N)c2N=C(c2ccc(F)cc2)N1C (stereo unspecified) as the compound, how does the inhibition read?
Answer: Its inhibition is inactive: -0.44%.

Question: Which inhibition does the source give for O=P(Nc1ccccn1)(c1cccc2ccccc12)c1cccc2ccccc12 here?
Answer: Its inhibition is inactive: 0.28%.

Question: Which inhibition does the source give for Cc1cc(SC(NC=O)C(Cl)(Cl)Cl)ncn1 (stereo unspecified) here?
Answer: Its inhibition is inactive: -1.06%.

Question: How did the inhibition turn out when O=[N+]([O-])c1ccc(Nc2ccc(Oc3ccc([N+](=O)[O-])cc3[N+](=O)[O-])cc2)c([N+](=O)[O-])c1 was run?
Answer: The inhibition was inactive: 0.92%.

Question: For CCOC(=O)Nc1cccc([As](=O)(O)O)c1, which inhibition is on record?
Answer: The inhibition was inactive: -1.75%.

Question: Which inhibition does the source give for COP(=O)(OC)N1CC1c1ccccc1 (stereo unspecified) here?
Answer: Its inhibition is inactive: 0.09%.

Question: How did the inhibition turn out when Cc1cc(SC(NC(=O)c2ccccc2)C(Cl)(Cl)Cl)nc(C(C)C)n1 (stereo unspecified) was run?
Answer: The inhibition was inactive: -1.41%.

Question: With CCCCOc1ccc(C(=O)NCC2(N3CCCCC3)CCCCC2)cc1OC as the compound, how does the inhibition read?
Answer: Its inhibition is inactive: -0.09%.

Question: CCOC(=O)Nc1ccc([As](=O)(O)O)c(O)c1 was tested. Which inhibition did it give?
Answer: Its inhibition is inactive: -0.32%.

Question: With O=C(O)C(O)c1ccc(N(CCCl)CCCl)cc1 (stereo unspecified) as the compound, how does the inhibition read?
Answer: Its inhibition is inactive: -0.15%.

Question: With CC1CCNP(=O)(N(CCCl)CCCl)O1 (stereo unspecified) as the compound, how does the inhibition read?
Answer: Its inhibition is inactive: -0.3%.

Question: Nc1cccc([As](=O)(O)c2ccccc2)c1 was tested. Which inhibition did it give?
Answer: Its inhibition is inactive: -0.47%.

Question: How did the inhibition turn out when O=P1(Nc2ccc(Br)cn2)COc2ccccc2OC1 was run?
Answer: Its inhibition is inactive: -0.18%.

Question: For NS(=O)(=O)c1cccc(NC(=O)COC(=O)C(O)(c2ccccc2)c2ccccc2)c1, which inhibition is on record?
Answer: Its inhibition is inactive: -0.09%.

Question: Which inhibition does the source give for O=[As](O)(c1cccs1)c1cccs1 here?
Answer: The inhibition was inactive: -1.17%.

Question: For Cc1ccc(OCC(=O)OC2CN3CCC2CC3)cc1 (stereo unspecified), which inhibition is on record?
Answer: The inhibition was inactive: 0.27%.

Question: With Cc1ccc(S(=O)(=O)N(CCCN)CCCc2c(C)nc(N)[nH]c2=O)cc1 as the compound, how does the inhibition read?
Answer: The inhibition was inactive: 0.67%.

Question: How did the inhibition turn out when O=P1(Nc2ncccn2)COc2ccccc2OC1 was run?
Answer: Its inhibition is inactive: -0.3%.

Question: How did the inhibition turn out when CN(C)C1(CNC(=O)c2ccc(S(C)(=O)=O)cc2)CCCCC1 was run?
Answer: The inhibition was inactive: -1.18%.

Question: With CCCC1OP(=O)(Nc2ccccc2)OCC1CC (stereo unspecified) as the compound, how does the inhibition read?
Answer: Its inhibition is inactive: -0.27%.

Question: Which inhibition does the source give for O=C(/C=C/c1ccccc1)OC1CN2CCC1CC2 (stereo unspecified) here?
Answer: Its inhibition is inactive: 0.3%.

Question: For CC1CCC(C(C)C)C(OP(=O)(Nc2ccccn2)c2ccccc2)C1 (stereo unspecified), which inhibition is on record?
Answer: Its inhibition is inactive: -1.08%.

Question: Cc1ccc(C(=O)OC2CN3CCC2CC3)cc1 (stereo unspecified) was tested. Which inhibition did it give?
Answer: The inhibition was inactive: -0.94%.

Question: For Cc1nn(-c2ccccc2)c2c1P(=O)(N1CCOCC1)N(C)C(c1ccccc1)=N2 (stereo unspecified), which inhibition is on record?
Answer: Its inhibition is inactive: -0.19%.

Question: CC(C)/C=N\N=C(\N)N[N+](=O)[O-] was tested. Which inhibition did it give?
Answer: The inhibition was inactive: 2.66%.

Question: CN(C(=O)Cc1ccc(Cl)c(Cl)c1)[C@@H]1CCCC[C@H]1N1CCCC1 was tested. Which inhibition did it give?
Answer: Its inhibition is inactive: -0.09%.

Question: Which inhibition does the source give for CC1(CBr)Cn2c(nc3ccccc3c2=O)S1 (stereo unspecified) here?
Answer: Its inhibition is inactive: -0.57%.

Question: COc1ccccc1CNC(=O)COC(=O)C(O)(c1ccccc1)c1ccccc1 was tested. Which inhibition did it give?
Answer: Its inhibition is inactive: -0.27%.

Question: Which inhibition does the source give for CC(C)(C)C(=O)NC(Sc1ncccn1)C(Cl)(Cl)Cl (stereo unspecified) here?
Answer: The inhibition was inactive: -0.51%.

Question: How did the inhibition turn out when O=P1(N(CCCl)CCCl)NCCC(C(F)(F)F)O1 (stereo unspecified) was run?
Answer: The inhibition was inactive: -0.29%.

Question: Clc1n[nH]nc1-c1nn[nH][15n]1 was tested. Which inhibition did it give?
Answer: The inhibition was inactive: -0.76%.

Question: CCOP(=O)(NC(=NC(C)c1ccccc1)NC(C)c1ccccc1)OCC (stereo unspecified) was tested. Which inhibition did it give?
Answer: Its inhibition is inactive: -0.85%.

Question: Which inhibition does the source give for O=P1(Nc2ccccn2)COc2ccccc2OC1 here?
Answer: Its inhibition is inactive: -1.15%.

Question: With CCC1=CC2Cc3nc4ccc(Cl)cc4c(N)c3C(C1)C2 (stereo unspecified) as the compound, how does the inhibition read?
Answer: Its inhibition is active: 78.8%.

Question: With CN(CCCl)Cc1cc(Cl)c(NC2=NCCN2)c(Cl)c1 as the compound, how does the inhibition read?
Answer: The inhibition was inactive: -0.38%.

Question: Which inhibition does the source give for CCOP(=O)(Nc1ccc(C)cn1)OCC here?
Answer: Its inhibition is inactive: 0.18%.

Question: How did the inhibition turn out when CCOP(=O)(Nc1cccc2ccccc12)OCC was run?
Answer: Its inhibition is inactive: -0.71%.

Question: Which inhibition does the source give for COc1cc(C2NCCC3(OCCO3)C2(C)C)cc(OC)c1OC (stereo unspecified) here?
Answer: Its inhibition is inactive: -1.21%.

Question: For Nc1cccc2c([As](=O)(O)O)cccc12, which inhibition is on record?
Answer: The inhibition was inactive: 0.48%.

Question: For Cc1ccc(NCCc2c([N+](=O)[O-])cc([N+](=O)[O-])cc2[N+](=O)[O-])cc1, which inhibition is on record?
Answer: The inhibition was inactive: -0.43%.

Question: Which inhibition does the source give for CCCOP(=S)(Nc1nc(N)cc(=O)[nH]1)OCCC here?
Answer: Its inhibition is inactive: 0.13%.

Question: For O=[As](O)(c1cccc(O)c1)c1cccc(O)c1, which inhibition is on record?
Answer: Its inhibition is inactive: -0.5%.

Question: How did the inhibition turn out when Cc1cccc(OCC(=O)OC2CN3CCC2CC3)c1 (stereo unspecified) was run?
Answer: The inhibition was inactive: -0.1%.

Question: O=C(OC1CN2CCC1CC2)c1ccc(Cl)cc1 (stereo unspecified) was tested. Which inhibition did it give?
Answer: Its inhibition is inactive: 0.4%.

Question: CS(=O)(=O)c1ccc(Cl)c(NC(=O)COC(=O)C(O)(c2ccccc2)c2ccccc2)c1 was tested. Which inhibition did it give?
Answer: Its inhibition is inactive: 0.08%.

Question: COc1cc(C(=O)NCC2(N3CCOCC3)CCCCC2)cc(Cl)c1OC(C)C was tested. Which inhibition did it give?
Answer: The inhibition was inactive: -0.77%.

Question: For O=[As](O)(O)c1cccnc1, which inhibition is on record?
Answer: Its inhibition is inactive: 0.01%.

Question: CN(C(=O)Cc1ccccc1)[C@@H]1CC[C@]2(CCCO2)C[C@H]1N1CCCC1 was tested. Which inhibition did it give?
Answer: Its inhibition is inactive: -0.29%.

Question: For CCOP1(=S)c2c(C)nn(CCC#N)c2N=C(c2ccc(F)cc2)N1C (stereo unspecified), which inhibition is on record?
Answer: Its inhibition is inactive: -1%.

Question: For N#CCCN(C(=O)COC(=O)C(O)(c1ccccc1)c1ccccc1)c1ccc(F)cc1, which inhibition is on record?
Answer: Its inhibition is inactive: -0.48%.

Question: With CN(C(=O)Cc1ccc(Cl)c(Cl)c1)[C@H]1CC[C@@]2(CCCO2)C[C@@H]1N1CCCC1 as the compound, how does the inhibition read?
Answer: Its inhibition is inactive: -1.06%.

Question: How did the inhibition turn out when CN(C)C(=O)c1cc([N+](=O)[O-])cc2c1-c1c(cc([N+](=O)[O-])cc1[N+](=O)[O-])C2=O was run?
Answer: The inhibition was inactive: -1.42%.

Question: O=[N+]([O-])c1ccc2c(c1)nnn2O was tested. Which inhibition did it give?
Answer: Its inhibition is inactive: -1.18%.

Question: Which inhibition does the source give for NC(=O)Nc1ccc([As](=O)(O)O)cc1 here?
Answer: The inhibition was inactive: -0.23%.

Question: For Nc1ccccc1[As](=O)(O)c1ccccc1, which inhibition is on record?
Answer: Its inhibition is inactive: -0.62%.

Question: For O=C(O)COc1ccc([As](=O)(O)O)cc1[N+](=O)[O-], which inhibition is on record?
Answer: The inhibition was inactive: -2.2%.

Question: With O=P(Nc1nccs1)(c1ccccc1)c1nc2ccccc2s1 (stereo unspecified) as the compound, how does the inhibition read?
Answer: Its inhibition is inactive: 0.15%.

Question: Which inhibition does the source give for O=P(Nc1nccs1)(Oc1ccccc1)Oc1ccccc1 here?
Answer: The inhibition was inactive: -0.23%.

Question: How did the inhibition turn out when CCOP1(=S)c2c(C)nn(CCC#N)c2N=C(c2ccccc2F)N1C (stereo unspecified) was run?
Answer: Its inhibition is inactive: -0.21%.

Question: CS(=O)(=O)c1cc([N+](=O)[O-])c2no[n+]([O-])c2c1 was tested. Which inhibition did it give?
Answer: The inhibition was inactive: 0.43%.
